PubChem BioAssay AID504761 | Drosophila RNAi Screening Center – 2011

Test: 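Genome-wide fly cell screen for genes dengue virus requires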 (primary screen)
Cell system: D.Mel-2 cells from Drosophila
Reagent: long dsRNA against Drosophila genes
Challenge: infection with dengue virus type 2; dose and infection time not stated
Read-out: 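Cells stained for dengue envelope protein and imaged; percent of infected cells per well on duplicate plates, ranked by infection, with stained nuclei counted for cell number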
Direction: infection score: higher = more virus-infected cells; cell count: higher = more cells in the well
Rule for the call: 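Very low infection ranking in both replicate wells (chance probability at most 0.065), then a retest showing infection dropped 1.5-fold or more at p below 0.05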
Meaning of the calls: active = confirmed: knock-down lowers infection; inactive = not picked or not confirmed
The screen tested about 22,000 reagents; this is a random part of those that have a named target and a result. In the full data, 116 (0.52%) got an active call. 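Calls depend on retest data that are not deposited; infection was ranked per plate without normalising between plates; the unit of the infection score is not given.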 Raw values vary from plate to plate and are shown uncorrected. Entries without a mark were called inactive. The record does not give: the amount of reagent, the time to read-out.

trbl [DRSC11901] → infection score, replicate 1 = 11.2; infection score, replicate 2 = 4.85; cell count, replicate 1 = 6256; cell count, replicate 2 = 6044
CG7675 [DRSC16280] → infection score, replicate 1 = 10.5; infection score, replicate 2 = 4.2; cell count, replicate 1 = 5950; cell count, replicate 2 = 6718
CG7675 [DRSC26897] → infection score, replicate 1 = 5.52; infection score, replicate 2 = 14.1; cell count, replicate 1 = 6391; cell count, replicate 2 = 6934
Psc [DRSC07518] → infection score, replicate 1 = 27; infection score, replicate 2 = 16.4; cell count, replicate 1 = 5270; cell count, replicate 2 = 6995
Psc [DRSC29016] → infection score, replicate 2 = 15.7; cell count, replicate 1 = 378; cell count, replicate 2 = 5904
CG4911 [DRSC10456] → infection score, replicate 1 = 7.33; infection score, replicate 2 = 14.5; cell count, replicate 1 = 5212; cell count, replicate 2 = 4187
thoc5 [DRSC04327] → infection score, replicate 1 = 17; infection score, replicate 2 = 28.7; cell count, replicate 1 = 5825; cell count, replicate 2 = 2561
CG9689 [DRSC18440] → infection score, replicate 1 = 2.1; infection score, replicate 2 = 4.45; cell count, replicate 1 = 6675; cell count, replicate 2 = 6969
CG9689 [DRSC28305] → infection score, replicate 1 = 2.93; infection score, replicate 2 = 12.1; cell count, replicate 1 = 1466; cell count, replicate 2 = 1558
Apc [DRSC14114] → infection score, replicate 1 = 1.21 (active); infection score, replicate 2 = 0.95; cell count, replicate 1 = 6526; cell count, replicate 2 = 6626
Obp19d [DRSC20569] → infection score, replicate 1 = 15; infection score, replicate 2 = 5.32; cell count, replicate 1 = 5829; cell count, replicate 2 = 5205
Iyd [DRSC10614] → infection score, replicate 1 = 3.32; infection score, replicate 2 = 1.83; cell count, replicate 1 = 6032; cell count, replicate 2 = 5859
Iyd [DRSC10615] → infection score, replicate 1 = 4.54; infection score, replicate 2 = 8.32; cell count, replicate 1 = 5754; cell count, replicate 2 = 6200
CG9107 [DRSC03138] → infection score, replicate 1 = 6; infection score, replicate 2 = 23.7; cell count, replicate 1 = 5888; cell count, replicate 2 = 5355
Tsp42Ee [DRSC05947] → infection score, replicate 1 = 20.9; infection score, replicate 2 = 13.1; cell count, replicate 1 = 5759; cell count, replicate 2 = 5473
Tsp42Ee [DRSC29024] → infection score, replicate 2 = 25.6; cell count, replicate 1 = 338; cell count, replicate 2 = 5926
Ucp4B [DRSC02665] → infection score, replicate 1 = 0.39; infection score, replicate 2 = 11.7; cell count, replicate 1 = 1023; cell count, replicate 2 = 6173
CG14720 [DRSC14942] → infection score, replicate 1 = 4.84; infection score, replicate 2 = 9.45; cell count, replicate 1 = 6423; cell count, replicate 2 = 6475
CG2901 [DRSC18239] → infection score, replicate 1 = 1.61; infection score, replicate 2 = 0.47; cell count, replicate 1 = 6197; cell count, replicate 2 = 6016
epsilonCOP [DRSC02003] → infection score, replicate 1 = 1.23; infection score, replicate 2 = 1.01; cell count, replicate 1 = 6087; cell count, replicate 2 = 6366
epsilonCOP [DRSC26466] → infection score, replicate 1 = 8.13; infection score, replicate 2 = 6.18; cell count, replicate 1 = 5854; cell count, replicate 2 = 6031
TBC1D5 [DRSC16421] → infection score, replicate 1 = 12.8; infection score, replicate 2 = 16.2; cell count, replicate 1 = 5640; cell count, replicate 2 = 5822
TBC1D5 [DRSC27219] → infection score, replicate 1 = 2.2; infection score, replicate 2 = 9.65; cell count, replicate 1 = 6723; cell count, replicate 2 = 6590
CG6026 [DRSC15950] → infection score, replicate 1 = 10.2; infection score, replicate 2 = 2.26; cell count, replicate 1 = 3287; cell count, replicate 2 = 6680
CG6793 [DRSC10714] → infection score, replicate 1 = 2.29; infection score, replicate 2 = 9.85; cell count, replicate 1 = 6893; cell count, replicate 2 = 6631
CG6793 [DRSC29291] → infection score, replicate 2 = 22.7; cell count, replicate 1 = 386; cell count, replicate 2 = 6366
Alp12 [DRSC02515] → infection score, replicate 1 = 16.5; infection score, replicate 2 = 3.03; cell count, replicate 1 = 4350; cell count, replicate 2 = 6512
